Measured values from several laboratories, pooled; numbers as filed in NIAID ChemDB.

Shared fields: whole-cell or culture tests; organism: Aspergillus niger; endpoint: MIC

Rows are shuffled and stem from different studies.

structure | strain | read by | value
COc1ccc(-c2cc(-c3ccc4oc(=O)c(-c5ccccc5)c(C)c4c3)nc3c2Cc2ccccc2-3)cc1OC | MTCC 282 | broth dilution / turbidity | >1000 µg/mL
O=C(Nc1ccccc1)n1[se]c2ccccc2c1=O |  | agar | 127 µg/mL
Cc1ccc(-c2cc(-c3ccc4oc(=O)c(-c5ccccc5)c(C)c4c3)nc3c2oc2ccccc23)cc1 | MTCC 282 | broth dilution / turbidity | >1000 µg/mL
O=C(NC1CCCCC1)n1[se]c2ccccc2c1=O |  | agar | 162 µg/mL
COc1ccc(-c2cc(-c3ccc4oc(=O)c(-c5ccccc5)c(C)c4c3)nc3c2Cc2ccccc2-3)cc1 | MTCC 282 | broth dilution / turbidity | >1000 µg/mL
O=c1c2ccccc2[se]n1C1CCCCC1 |  | agar | 9 µg/mL
O=C(O)c1ccc(NC(=S)N/N=C/c2cccc([N+](=O)[O-])c2)cc1 |  | agar diffusion | 1.47 µM
Cn1[se]c2ccccc2c1=O |  | agar | 27 µg/mL
O=C(NO)c1ccc(NC(=S)N/N=C/c2ccc(Cl)cc2)cc1 |  | agar diffusion | 1.67 µM
Cc1c(-c2ccccc2)c(=O)oc2ccc(-c3cc(-c4ccc(Cl)cc4)c4oc5ccccc5c4n3)cc12 | MTCC 282 | broth dilution / turbidity | >1000 µg/mL
O=C(NO)c1ccc(NC(=S)N/N=C/c2ccccc2O)cc1 |  | agar diffusion | 1.75 µM
Cc1c(-c2ccccc2)c(=O)oc2ccc(-c3cc(-c4ccccc4)c4c(n3)-c3ccccc3CC4)cc12 | MTCC 282 | broth dilution / turbidity | >1000 µg/mL
O=NC(=O)c1ccc(NC(=S)NNc2c(O)[nH]c3ccccc23)cc1 |  | agar diffusion | 0.82 µM
O=C(Nc1cccc(Cl)c1)n1[se]c2ccccc2c1=O |  | agar | 352 µg/mL
O=C(O)c1ccc(NC(=S)N=Nc2c(O)[nH]c3ccccc23)cc1 |  | agar diffusion | 2.05 µM
C[C@@H]1[C@H](O)[C@@H](C)/C=C/C=C/CC/C=C/C=C/C=C/C=C/C(O[C@H]2O[C@H](C)[C@@H](O)[C@H](N)[C@@H]2O)CC2O[C@](O)(CC(O)C(O)CCC(O)CC(O)CC(O)CC(=O)O[C@H]1C)CC(O)C2C(=O)O |  | agar diffusion | 10 µg/mL

Blank or dashed fields: not listed here.